Results of unrelated studies side by side (data: NIAID ChemDB).

Shared fields: whole-cell or culture tests; organism: Mycobacterium avium

Conditions beyond the fields shown may differ between rows. A number after MIC or MFC names an inhibition level or a share of isolates. An empty or dashed field is not shown.

compound | conditions | read-out | strain | method | result
O=C(Nc1ccc(C(F)(F)F)cc1)c1cc(Br)ccc1OP(=O)(Oc1ccccc1)Oc1ccccc1 | 7 d | MIC | MY330/88 |  | 8 µM
Cc1cc(-c2cc3c(cc2F)c(=O)c(C(=O)O)cn3C2CC2)cc(C)n1 |  | MBC | 3349 |  | 8 µg/mL
CO[C@H]1/C=C/O[C@@]2(C)Oc3c(C)c(O)c4c(O)c(c(/C=N/N5CCN(C)CC5)c(O)c4c3C2=O)NC(=O)/C(C)=C\C=C\[C@H](C)[C@H](O)[C@@H](C)[C@@H](O)[C@@H](C)[C@H](OC(C)=O)[C@@H]1C |  | Mean MIC | ATCC 25291 |  | 9.25 µg/mL
O=C(O)c1cn(C2CC2)c2c(F)c(N3CCN4CCC3C4)c(F)cc2c1=O |  | MIC | RG2 |  | 1 µg/mL
CC1CN(c2c(F)c(N)c3c(=O)c(C(=O)O)cn(C4CC4)c3c2F)CCN1C |  | MIC | PI4/44 |  | 0.25 µg/mL
O=C1c2cc(Cl)ccc2OP(=O)(c2ccccc2)N1c1ccc(Cl)c(Cl)c1 | 14 d | MIC | MY330/88 |  | 16 µM
CC[C@H]1OC(=O)[C@H](C)[C@@H](O[C@H]2C[C@@](C)(OC)[C@@H](O)[C@H](C)O2)[C@H](C)[C@@H](O[C@@H]2O[C@H](C)C[C@H](N(C)C)[C@H]2O)[C@](C)(OC)C[C@@H](C)C(=O)[C@H](C)[C@@H](O)[C@]1(C)O |  | MIC | RG0 |  | 2 µg/mL
CC[C@H]1OC(=O)[C@H](C)[C@@H](O[C@H]2C[C@@](C)(OC)[C@@H](O)[C@H](C)O2)[C@H](C)[C@@H](O[C@@H]2O[C@H](C)C[C@H](N(C)C)[C@H]2O)[C@](C)(OC)C[C@@H](C)C(=O)[C@H](C)[C@@H](O)[C@]1(C)O | pH 7.4 | MIC | 3090 | broth dilution / radiometric | 0.5 µg/mL
CO[C@H]1/C=C/O[C@@]2(C)Oc3c(C)c(O)c4c(O)c(c(N5CCN(Cc6c(C)cc(C)cc6C)CC5)c(O)c4c3C2=O)NC(=O)/C(C)=C\C=C\[C@H](C)[C@H](O)[C@@H](C)[C@@H](O)[C@@H](C)[C@H](OC(C)=O)[C@@H]1C |  | MBC | 3350-4 |  | 8 µg/mL
CCc1cc(C(N)=S)ccn1 |  | Mean MIC | ATCC 25291 |  | >2.8 µg/mL
O=C(Nc1ccc(Cl)cc1)c1cc(Cl)ccc1OP(=O)(Oc1ccccc1)Oc1ccccc1 | 7 d | MIC | MY330/88 |  | 16 µM
CO[C@H]1/C=C/O[C@@]2(C)Oc3c(C)c(O)c4c(O)c(c(/C=N/N5CCN(C)CC5)c(O)c4c3C2=O)NC(=O)/C(C)=C\C=C\[C@H](C)[C@H](O)[C@@H](C)[C@@H](O)[C@@H](C)[C@H](OC(C)=O)[C@@H]1C |  | MIC | Isolate 90-1625 |  | 15 µg/mL
NC1CCN(c2c(F)cc3c(=O)c(C(=O)O)cn(C4CC4)c3c2F)C1 |  | MIC | PI2/8 |  | 0.12 µg/mL
CN[C@@H]1[C@@H](O)[C@@H](O[C@@H]2[C@@H](O)[C@H](O[C@H]3O[C@H](CN)CC[C@H]3N)[C@@H](N)C[C@H]2N)OC[C@]1(C)O |  | Median MIC | ATCC 25291 |  | 4 µg/mL
O=C(Nc1ccccc1)c1ccccc1OP(=O)(Oc1ccccc1)Oc1ccccc1 | 7 d | MIC | MY330/88 |  | 125 µM
CO[C@H]1/C=C/O[C@@]2(C)Oc3c(C)c(O)c4c(=O)c(c5oc6cc(N7CCN(CC(C)C)CC7)cc(=O)c6nc5c4c3=C2O)NC(=O)/C(C)=C\C=C\[C@H](C)[C@H](O)[C@@H](C)[C@@H](O)[C@@H](C)[C@H](OC(C)=O)[C@@H]1C |  | MBC | 3010 |  | >0.125 µg/mL
Cc1c(F)c(N2CCNC(C)C2)c(C(F)(F)F)c2c1c(=O)c(C(=O)O)cn2C1CC1 |  | MIC90 | 14 strains |  | 16 µg/mL
CC1CN(c2c(F)c(N)c3c(=O)c(C(=O)O)cn(C4CC4)c3c2F)CCN1C |  | MIC | RG2 |  | 0.5 µg/mL
O=C(Nc1ccc(Br)cc1)c1cc(Cl)ccc1OP(=O)(Oc1ccccc1)c1ccccc1 | 14 d | MIC | MY330/88 |  | 16 µM
NC[C@@H]1O[C@H](O[C@H]2[C@@H](O)[C@H](O[C@@H]3[C@@H](O)[C@H](N)C[C@H](N)[C@H]3O[C@H]3O[C@H](CO)[C@@H](O)[C@H](O)[C@H]3N)O[C@@H]2CO)[C@H](N)[C@@H](O)[C@@H]1O |  | Median MIC | ATCC 25291 |  | 6 µg/mL
CCNCC1CCN(c2c(F)cc3c(=O)c(C(=O)O)cn4c3c2CCC4C)C1 |  | MIC | PI4/44 |  | 8 µg/mL
O=C(Nc1ccccc1)c1ccccc1OP(=O)(c1ccccc1)c1ccccc1 | 7 d | MIC | MY330/88 |  | 125 µM

2 of the rows above, restated:

compound | conditions | read-out | strain | method | result
O=C(Nc1ccc(C(F)(F)F)cc1)c1cc(Br)ccc1OP(=O)(Oc1ccccc1)Oc1ccccc1 | 7 d | MIC | MY330/88 |  | 8 µM
CO[C@H]1/C=C/O[C@@]2(C)Oc3c(C)c(O)c4c(O)c(c(/C=N/N5CCN(C)CC5)c(O)c4c3C2=O)NC(=O)/C(C)=C\C=C\[C@H](C)[C@H](O)[C@@H](C)[C@@H](O)[C@@H](C)[C@H](OC(C)=O)[C@@H]1C |  | MIC | Isolate 90-1625 |  | 15 µg/mL